Pooled drug test results. Numbers come from NIAID ChemDB, via PubChem.

Lines come from different laboratories, so protocols vary. An empty or dashed field is not shown. ICn: concentration for n% inhibition. MIC50, MIC90 and the like: level of inhibition, or share of isolates inhibited. Percent inhibition refers to the dose given; in toxicity tests it is the harm to the cells. MIC bound: limit read from a one-dose screen.

SMILES | test | organism | strain or isolate | protein | read by | endpoint | tested at | result
O=C1c2cccc3cccc(c23)C(=O)N1c1nccs1 | culture | Mycobacterium tuberculosis | H37Rv | - | resazurin | MIC bound | - | >6.25 µg/mL
CCN(C(=O)C(C)C)c1ccccc1 | culture | Mycobacterium tuberculosis | H37Rv | - | - | MIC | - | >100 µg/mL
OCc1ccc(-c2cncc(N3CCN(c4cccc5[nH]ccc45)CC3)n2)cc1 | target | Cytomegalovirus | - | UL97 kinase | - | IC50 | - | <100 µM
NC(=O)CNc1cccc(NCC(N)=O)c1 | culture | Mycobacterium tuberculosis | H37Rv | - | - | MIC | - | 50 µg/mL
S=C(S)NN1CCCC1 | culture | Mycobacterium tuberculosis | PAS-R | - | - | MIC | - | 0.8 µg/mL
O=[N+]([O-])c1ccc(-c2cccc(-c3ccc([N+](=O)[O-])cc3)n2)cc1 | culture | Mycobacterium tuberculosis | H37Rv | - | - | MIC | - | >100 µg/mL
Fc1ccc(-c2cncc(N3CCN(c4ccccc4F)CC3)n2)cc1 | target | Cytomegalovirus | - | UL97 kinase | - | inhibition | 1 µM | <50%
C=CCc1ccc(O)c(OC)c1 | culture | Candida albicans | 3087 | - | turbidity | MIC90 | - | 500 µg/mL
O=C(O)CCSc1nc2c(=O)[nH][nH]c(=O)c2n1Cc1ccccc1 | culture | Mycobacterium tuberculosis | H37Rv | - | BACTEC | MIC bound | - | >12.5 µg/mL
Clc1cccc(N2CCN(c3cncc(-c4ccccc4)n3)CC2)c1 | target | Cytomegalovirus | - | UL97 kinase | - | inhibition | 1 µM | <50%
CC(C(=O)c1ccc(O)cc1)(c1nc2nnc(N)n2[nH]c1=O)c1nc2nnc(N)n2[nH]c1=O | culture | Mycobacterium tuberculosis | H37Rv | - | BACTEC | MIC bound | - | >12.5 µg/mL
CCCCCCCCCCCCS(=O)(=O)c1ccc(NC(C)=O)cc1 | culture | Mycobacterium tuberculosis | H37Rv | - | - | MIC | - | >100 µg/mL
COc1c2c(cc3c1c(=O)c1ccccc1n3C)OCO2 | culture | Mycobacterium tuberculosis | H37Rv | - | BACTEC | MIC bound | - | >12.5 µg/mL
Fc1ccc(N2CCCCC2)c(NC(=S)c2ccncc2)c1 | host protein | - | - | MAP2K2 | kinase activity | inhibition | 10 µM | 4.9%
COc1ccccc1N1CCN(c2cncc(-c3ccc(F)cc3)n2)CC1 | target | Cytomegalovirus | - | UL97 kinase | - | inhibition | 1 µM | <50%
O=C1C(c2ccccc2)C(=O)C2C3C=CC(C3)C12 | culture | Mycobacterium tuberculosis | H37Rv | - | - | MIC | - | 100 µg/mL
COc1ccc(C(C)C)cc1-c1cncc(N2CCN(c3ccncc3)CC2)n1 | target | Cytomegalovirus | - | UL97 kinase | - | IC50 | - | <100 µM
c1ccc(N2CN(c3ccccn3)CN(c3ccccn3)C2)nc1 | culture | Mycobacterium tuberculosis | H37Rv | - | - | MIC | - | >100 µg/mL
O=C1C=C(Nc2ccc(S(=O)(=O)Nc3ncccn3)cc2)c2ccccc2C1=O | culture | Mycobacterium tuberculosis | H37Rv | - | resazurin | MIC bound | - | >6.25 µg/mL
Nc1ccc2c(=O)[nH][nH]c(=O)c2c1.O | culture | Mycobacterium tuberculosis | H37Rv | - | - | MIC | - | >100 µg/mL
CCCn1cc2c3c(cccc31)[C@H]1C=C(C)CN(C)[C@@H]1C2.O=C(O)[C@H](O)[C@@H](O)C(=O)O | culture | Mycobacterium tuberculosis | H37Rv | - | BACTEC | inhibition | 12.5 µg/mL | 41%
CCOC(=O)/C(=C/Nc1cccc(Cl)c1)C(=O)Nc1ccccc1 | culture | Mycobacterium tuberculosis | H37Rv | - | - | MIC | - | >100 µg/mL
COc1cc(OC)c2c(c1)OC(=O)C(C(C)=O)C2 | culture | Mycobacterium tuberculosis | H37Rv | - | BACTEC | inhibition | 12.5 µg/mL | 3%
c1ccc(Oc2ccc(-c3cncc(N4CCN(c5ccccn5)CC4)n3)cc2)cc1 | target | Cytomegalovirus | - | UL97 kinase | - | inhibition | 10 µM | >15%
O=C(c1ccccc1)c1ccsc1 | culture | Mycobacterium tuberculosis | H37Rv | - | - | MIC | - | 50 µg/mL
COc1ccc(/C=C2\N=COC2=O)cc1OC | culture | Mycobacterium tuberculosis | H37Rv | - | BACTEC | MIC bound | - | >12.5 µg/mL
C/C=C/C(=O)N(C)c1ccccc1 | culture | Mycobacterium tuberculosis | H37Rv | - | - | MIC | - | >100 µg/mL
Fc1ccc(N2CCN(c3cncc(-c4cccc(F)c4)n3)CC2)cc1 | target | Cytomegalovirus | - | UL97 kinase | - | inhibition | 10 µM | >15%
O=C(/C=N/O)Nc1ccccc1 | culture | Mycobacterium tuberculosis | H37Rv | - | - | MIC | - | 100 µg/mL
c1ccc(C2OCC(C3OC(c4ccccc4)OC4COC(c5ccccc5)OC43)O2)cc1 | culture | Mycobacterium tuberculosis | H37Rv | - | BACTEC | inhibition | 12.5 µg/mL | 2%
Fc1ccc(-c2cncc(N3CCN(c4ccccn4)CC3)n2)c(F)c1 | target | Cytomegalovirus | - | UL97 kinase | - | inhibition | 10 µM | >15%
COCC(O)CNCCNCC(O)COC | culture | Mycobacterium tuberculosis | H37Rv | - | - | MIC bound | - | >6.25 µg/mL
CC(C)(C)c1ccc(-c2cncc(N3CCN(c4ccccc4)CC3)n2)cc1 | target | Cytomegalovirus | - | UL97 kinase | - | IC50 | - | <100 µM

Repeating the final 2 entries:

SMILES,test,organism,strain or isolate,protein,read by,endpoint,tested at,result
COCC(O)CNCCNCC(O)COC,culture,Mycobacterium tuberculosis,H37Rv,-,-,MIC bound,-,>6.25 µg/mL
CC(C)(C)c1ccc(-c2cncc(N3CCN(c4ccccc4)CC3)n2)cc1,target,Cytomegalovirus,-,UL97 kinase,-,IC50,-,<100 µM